Experimental findings from publication PMC3595261 are described below.

Common to all, as to assay: EMSA
(A gel shift assay detects complexes by their altered migration in electrophoresis.)

Data set [1] concerns VicR (rVicR) + CovR (rCovR). The settings on record: co-binding, increased retardation, VicR buffer; 25 C, 60 min, 25 ul, ~0.6 fmol DNA. CovR (0-30 pmol): 20 mM Hepes pH 7.6, 1 mM EDTA, 10 mM (NH4)2SO4, 1 mM DTT, 0.2% Tween 20, 30 mM KCl, poly L-lysine 5 ng/ul; recombinant protein; label: DIG end label or unlabeled (gel stain); probe letters rebuilt from the primers and the genome.

The target in another data set is CovR (rCovR) (UniProt I6L8Z3). The settings on record: 25 C, 60 min, 25 ul, ~0.6 fmol DNA. CovR (0-30 pmol): 20 mM Hepes pH 7.6, 1 mM EDTA, 10 mM (NH4)2SO4, 1 mM DTT, 0.2% Tween 20, 30 mM KCl, poly L-lysine 5 ng/ul; recombinant protein; residues 1-230; protein details: His-tag (pET-22b, NcoI-XhoI); label: DIG end label or unlabeled (gel stain); probe letters rebuilt from the primers and the genome.

Another data set relates to VicR (rVicR). As to conditions: 25 C, 60 min, 25 ul, ~0.6 fmol DNA. CovR (0-30 pmol): 20 mM Hepes pH 7.6, 1 mM EDTA, 10 mM (NH4)2SO4, 1 mM DTT, 0.2% Tween 20, 30 mM KCl, poly L-lysine 5 ng/ul; recombinant protein; residues 1-235; protein details: His-tag (pET-22b, NcoI-XhoI); label: DIG end label or unlabeled (gel stain); probe letters rebuilt from the primers and the genome.

In the case of “ACAGCTTGGCTATTGTTGGTATTTGTTTGCTTGGTTTTATTTTATTTTTATTAAAAAAATGAGAAAATACTTCGATTCTATTAGAAGTCAATTTTTTTCAGATAAATAAGGAATTACTTTTCTTAAAAGGAAAAGAAGGCATTTACTTTTTCTAATCACAACTTAATTGTAATATTTTTAATACTACTCTAAAAAGCAAGTAATATAACTACTGTATCATGTATATATAATTTGTTTAAAGGAGTAACCAATGTCTATTAAAAATATTTTAGAAAACAAAACAACAACAATTAAAGTTAGTTTTGCAGGAATTGCA (double strand) [lysM promoter]”, the binding result (in data set [1]; in the data set with CovR (rCovR); in the data set with VicR (rVicR)) was “binds” throughout.

Regarding “TTGTACCAAAGACAAGCATAACTTTAATCTTTTTCATGTTCCCTCTTCATGATAAATTGAAATTAATGTAAAGCCAAATGATACATCTTTGTCATAATAGCATTATTTCATTACATTTTCAATACAAAATACTTTGATTTTTTTAAAAAACTTTTCCTTTATTTTATAATTATATTAAAAACACTCTTTTTTCACAAGAGCGTCCAAGGATAAAAATCATTACTAAATAAGTATTTGGCAAGCTTTAGAATTTTATCATTTTAGTTTAATGAGATAAAAAATTAATCAAGAGACTGTTTCGTATATGTCAA (double strand) [epsC promoter]”, the binding result with CovR (rCovR) is given as “binds”.

For “GCTTCCGAACATTGATCTTATTAATATTTTAACAATAAAAGGTTAGGACAAAAGTCCTGCCTTTTTCAAATATATTAGGCATAGTAGCTTGAAGTCAGACTGCTTAACTTTCTATTTTTGTCGATATGCTCTTAATTGTATTCATTTTTTACAGAAATGTAAAAAAAATGTGTCCATAATAAAATTAAATCATGATAAACTATATTATTATTTTAATGACATTAAAATAATAATAATTTATTTATGAGAGGAAAAAATGGAACAGAAGATTTTTAGCAAACGAAAAAGTAAGATTGCTGGGCTTTGTGGAGCTATTTTAACGAC (double strand) [wapE promoter]”, the binding result in the data set with CovR (rCovR) and in the data set with VicR (rVicR) was “binds” each time.
